Compound potency records, mixed from different reports. Data source: NIAID ChemDB in PubChem.

All rows: growth or infection tests

MIC50, MIC90 and the like: level of inhibition, or share of isolates inhibited. Blank or dashed fields: not listed here. Lines come from different laboratories, so protocols vary. ECn is the concentration giving n% inhibition of infection, replication or growth. Percent inhibition refers to the dose given; in toxicity tests it is the harm to the cells.

structure,organism,dose,read-out,cells,strain,result
O=c1cnn([C@@H]2O[C@H](CO)[C@@H](O)[C@H]2O)c(=S)[nH]1,Venezuelan equine encephalitis virus,-,EC50,VERO,Trinidad donkey,1.85 µg/mL
Nc1nc(=O)n([C@@H]2C=C(CO)[C@@H](O)[C@H]2O)cc1Cl,Variola virus,-,EC50,-,7124,>100 µg/mL
COc1ccc(-c2ccc(C(Nc3ccccc3)N3c4ccccc4Sc4cc(O)c(CCn5c(-c6ccccc6)nc(=O)c6ccccc65)cc43)cc2)cc1,Japanese encephalitis virus,-,EC50,-,P20778,62.5 µg/mL
CC(=O)N[C@H]1[C@H]([C@H](O)[C@H](O)CO)OC(C(=O)O)=C[C@@H]1N=C(N)N,Influenza A virus,0.0083 µM,inhibition,MDCK,H5N8 A/DK/IRE/83,90%
Cc1ccc(C(=O)CCCCCCOc2ccc(C3=N[C@@H](C)CO3)cc2)s1,Poliovirus,-,EC50,VERO,TYPE 1,>25.97 µM
C[C@@]1(O)[C@H](O)[C@@H](COP(=O)(O)OP(=O)(O)OP(=O)(O)O)O[C@H]1n1ccc2c(N)ncnc21,Western equine encephalitis virus,-,EC50,VERO,-,200 µM
CCOP(=O)(NC(C)C(=O)OC)OC[C@H]1O[C@@H](n2ncc(=O)[nH]c2=O)C(O)C1O,Japanese encephalitis virus,-,EC50,VERO,Nakayama,22.4 µg/mL
CCCn1cnc(=N)c2[nH]cnc21,Vaccinia virus,25 µg/mL,inhibition,BSC-1,-,0%
CO[C@H]1[C@@H](O)[C@H](n2cnc3c(N)ncnc32)O[C@@H]1CO,Cowpox virus,-,EC50,VERO,Brighton,24 µM
O=[N+]([O-])c1ccc2[nH]c(O)c(N=NC(=S)Nc3ccc(Br)cc3)c2c1,Yellow fever virus,-,EC50,VERO,-,<0.8 µg/mL
Nc1ncnc2c1ncn2[C@H]1C[C@@H](CO)[C@H](O)[C@@H]1O,Vaccinia virus,-,EC50,PRK,-,400 µg/mL
Nc1ccn([C@@H]2C=C(CO)[C@@H](O)[C@H]2O)c(=O)n1,Variola virus,-,EC50,-,Bangladesh 1975,0.03 µg/mL
Cc1cn(CCCC(O)CF)c(=O)[nH]c1=O,Junin virus,-,EC50,VERO,-,>200 µg/mL
Cc1ccccc1Cn1cnc(=N)c2[nH]cnc21,Vaccinia virus,25 µg/mL,inhibition,BSC-1,-,0%
NC(=O)c1[nH]nc([C@@H]2O[C@H](CO)[C@@H](O)[C@H]2O)c1O,Venezuelan equine encephalitis virus,-,EC50,VERO,Trinidad donkey,0.02 µg/mL
CC1S/C(=N/N=C2\C(=O)Nc3ccc([N+](=O)[O-])cc32)N(c2ccccc2)C1=O,Yellow fever virus,-,EC50,VERO,-,>20 µg/mL
CC12CC[C@H](OS(=O)(=O)O)CC1=CCC1C2CCC2(C)C(C(=O)COS(=O)(=O)O)CCC12,Junin virus,80 µg/mL,inhibition,VERO,IV4454,10.5%
Nc1ncnc2c1nc(Cl)n2[C@@H]1O[C@H](CO)[C@@H](O)[C@H]1O,Cowpox virus,-,EC50,VERO,Brighton,>100 µM
Cn1cc(NC(=O)c2cc(NC(=O)c3cc([N+](=O)[O-])cn3C)cn2C)cc1C(=O)NCCC(=N)N,Vaccinia virus,100 µg/mL,inhibition,BSC-1,Noguchi,0%
Nc1nc2c(ncn2[C@@H]2O[C@H](CO)C(O)(C(F)(F)F)[C@H]2O)c(=O)[nH]1,Yellow fever virus,-,EC50,-,-,≥100 µM
O=[N+]([O-])c1ccc2[nH]c(O)c(N=NC(=S)Nc3ccccc3)c2c1,Yellow fever virus,-,EC50,VERO,-,<0.8 µg/mL
CC(C)O[C@@H]1[C@H](OC(C)C)[C@@H](COS(=O)(=O)NC(=O)O[C@@H]2C[C@@H](OC(=O)c3ccccc3)C[C@@H](COC(=O)c3ccccc3)O2)O[C@H]1n1ccc(=O)[nH]c1=O,African swine fever virus,-,EC50,VERO,-,50 µg/mL
Cc1ccc(C(=O)CCCCOc2ccc(C3=NC(C)(C)CO3)cc2)s1,Poliovirus,-,EC50,VERO,TYPE 1,>26.95 µM
CC(C)=CCCC(CO)C1CCC2C3CC=C4C[C@H](O)[C@@H](O)CC4(C)C3CCC12C,Junin virus,40 µg/mL,inhibition,VERO,IV4454,0%
COC(=O)[C@H]1[C@@H]2C[C@@H](O[C@@H]3O[C@H](C)[C@@H](O)[C@H](N)[C@@H]3O)/C=C/C=C/C=C/C=C/C=C/C=C/C=C/[C@H](C)[C@@H](O)[C@H](C)[C@H](C)OC(=O)C[C@H](O)C[C@H](O)[C@@H](O)CC[C@H](O)C[C@H](O)C[C@](O)(C[C@@H]1O)O2,Newcastle disease virus,-,EC50,HFF,-,100 µg/mL
Cc1ccc(C(=O)CCCCOc2ccc(C3=N[C@@H](C)CO3)cc2)s1,Poliovirus,-,EC50,VERO,TYPE 3,0.56 µM
CC(=O)N[C@H]1[C@@H](OC(=O)NS(=O)(=O)OC[C@H]2O[C@@H](n3ccc(=O)[nH]c3=O)[C@H](OC(C)C)[C@@H]2OC(C)C)O[C@H](COC(=O)c2ccccc2)[C@@H](OC(=O)c2ccccc2)[C@@H]1OC(=O)c1ccccc1,African swine fever virus,-,EC50,VERO,-,>100 µg/mL
Brc1ccc(C2=Cc3ccccc3OC2)cc1,Poliovirus,-,EC50,HEP-2,TYPE 2,>10 µM
C[C@@H](SC1COC(/C=C/C=C/c2ccc(C#N)cc2F)OC1)[C@](O)(Cn1cncn1)c1ccc(F)cc1F,Histoplasma capsulatum,-,MIC90,-,50 strains,0.06 µg/mL
O=c1ccn([C@@H]2O[C@H](CO)[C@](O)(C(F)(F)F)[C@H]2O)c(=O)[nH]1,Yellow fever virus,-,EC50,-,-,≥100 µM
COC(=O)c1ncn([C@@H]2C[C@@H](Oc3ccc(C)cc3)[C@H](COc3ccc(C)cc3)O2)c1C(=O)OC,Ebola virus,-,EC50,-,-,10 µg/mL
Cc1ccc(C(=O)CCCCCCOc2ccc(C3=NC(C)(C)CO3)cc2)s1,Poliovirus,-,EC50,VERO,TYPE 1,>26.95 µM
Cc1cccc(Cn2cnc(=N)c3[nH]cnc32)c1,Vaccinia virus,25 µg/mL,inhibition,BSC-1,-,0%
CC(C)O[C@@H]1[C@H](OC(C)C)[C@@H](COS(=O)(=O)NC(=O)O[C@H]2O[C@H](COCc3ccccc3)[C@@H](OCc3ccccc3)[C@H](OCc3ccccc3)[C@H]2OCc2ccccc2)O[C@H]1n1ccc(=O)[nH]c1=O,African swine fever virus,-,EC50,VERO,-,40 µg/mL
CC12CC[C@H](O)CC1=CCC1C2CCC2(C)C(C(=O)COS(=O)(=O)O)CCC12,Junin virus,40 µg/mL,inhibition,VERO,IV4454,28.9%
Nc1nc(=O)n([C@@H]2O[C@H](CO)[C@@H](O)[C@@H]2O)cc1Cl,Cowpox virus,-,EC50,C1271,Brighton,4.9 µM
CC(=O)OC[C@H]1O[C@@H](n2ncc(=O)[nH]c2=O)[C@H](OC(C)=O)[C@@H]1OC(C)=O,Japanese encephalitis virus,-,EC50,VERO,Nakayama,3.5 µg/mL
Nc1ncnc2c1ncn2C(CF)CCCO,Junin virus,-,EC50,VERO,-,>50 µg/mL
C=CCN1C(=O)C(C)S/C1=N/N=C1\C(=O)Nc2ccc([N+](=O)[O-])cc21,Yellow fever virus,-,EC50,VERO,-,>20 µg/mL
Nc1ccn(C[C@H]2COP(=O)(O)CO2)c(=O)n1,Variola virus,-,EC50,VERO,Isolate Yamada,28.2 µg/mL
CC[C@@H](O)C1=C[C@@H](n2cnc3c(N)ncnc32)[C@H](O)[C@@H]1O,Junin virus,-,EC50,VERO,-,>50 µg/mL
Cc1ccc(C(=O)CCCCCCOc2ccc(C3=NC(C)CO3)cc2)s1,Poliovirus,-,EC50,VERO,TYPE 2,>25.97 µM
C1=C(c2ccccc2)COc2ccccc21,Poliovirus,10 µM,inhibition,HEP-2,IB (TYPE 2),42%
CC(C)O[C@@H]1[C@H](OC(C)C)[C@@H](COS(=O)(=O)NC(=O)O[C@H]2C[C@@H](OC(=O)c3ccccc3)[C@H](OC(=O)c3ccccc3)[C@@H](COC(=O)c3ccccc3)O2)O[C@H]1n1ccc(=O)[nH]c1=O,African swine fever virus,-,EC50,VERO,-,50 µg/mL
Nc1ncnc2c1ncn2C1CC(CO)[C@@H](O)[C@H]1O,Vaccinia virus,-,EC50,PRK,-,2 µg/mL
CC(C)C(=O)Nc1ncc(Cc2ccccc2)s1,Histoplasma capsulatum,-,MIC50,-,-,6.27 µM
Nc1ncnc2c1ncn2[C@@H]1C=C(CO)[C@@H](O)[C@H]1O,Junin virus,-,EC50,VERO,-,0.5 µg/mL
Nc1ccn(C[C@@H](CO)OCP(=O)(O)O)c(=O)n1,Variola virus,-,EC50,LLC-MK2,Isolate Bangladesh,3.2 µg/mL
Cc1nc2c(N)ncnc2n1[C@@H]1O[C@H](CO)[C@@H](O)[C@H]1O,Cowpox virus,-,EC50,VERO,Brighton,>1000 µM
Clc1ccc(C2=Cc3cc(Cl)ccc3OC2)cc1,Poliovirus,-,EC50,HEP-2,TYPE 2,>10 µM
C=C[C@@H](O)C1=C[C@@H](n2cnc3c(N)ncnc32)[C@H](O)[C@@H]1O,Junin virus,-,EC50,VERO,-,>50 µg/mL
Clc1ccc2c(c1)C=C(c1ccccc1)CO2,Poliovirus,10 µM,inhibition,HEP-2,II (TYPE 2),96%
Nc1nccc2c1ncn2[C@@H]1O[C@H](CO)[C@@H](O)[C@H]1O,Newcastle disease virus,30 µM,inhibition,Chick embryo cells,-,10.4%
CCNC(=S)N=Nc1c(O)[nH]c2ccc([N+](=O)[O-])cc12,Yellow fever virus,-,EC50,VERO,-,1.96 µg/mL
CC(=O)OC[C@H]1O[C@@H](OC(=O)NS(=O)(=O)OC[C@H]2O[C@@H](n3ccc(=O)[nH]c3=O)[C@H](OC(C)C)[C@@H]2OC(C)C)[C@@H](OC(C)=O)[C@@H](OC(C)=O)[C@@H]1OC(C)=O,African swine fever virus,-,EC50,VERO,-,>100 µg/mL
Cc1ccc(Cn2cnc(=N)c3[nH]cnc32)cc1,Vaccinia virus,12 µg/mL,inhibition,BSC-1,-,0%
CCC(C)CC(C)CCCCCCCCC(=O)N[C@H]1C[C@@H](O)[C@H](NCCN)NC(=O)[C@@H]2[C@@H](O)CCN2C(=O)[C@H]([C@H](O)CCN)NC(=O)[C@H]([C@H](O)[C@@H](O)c2ccc(O)cc2)NC(=O)[C@@H]2C[C@@H](O)CN2C(=O)[C@H]([C@@H](C)O)NC1=O,Histoplasma capsulatum,-,Mean MIC,-,20 isolates,16.6 µg/mL
Cc1cn(C(CF)CCCO)c(=O)[nH]c1=O,Junin virus,-,EC50,VERO,-,>200 µg/mL

For reference, 3 entries again:

structure | organism | dose | read-out | cells | strain | result
Nc1ccn([C@@H]2C=C(CO)[C@@H](O)[C@H]2O)c(=O)n1 | Variola virus | - | EC50 | - | Bangladesh 1975 | 0.03 µg/mL
Nc1nc(=O)n([C@@H]2C=C(CO)[C@@H](O)[C@H]2O)cc1Cl | Variola virus | - | EC50 | - | 7124 | >100 µg/mL
CC(=O)N[C@H]1[C@@H](OC(=O)NS(=O)(=O)OC[C@H]2O[C@@H](n3ccc(=O)[nH]c3=O)[C@H](OC(C)C)[C@@H]2OC(C)C)O[C@H](COC(=O)c2ccccc2)[C@@H](OC(=O)c2ccccc2)[C@@H]1OC(=O)c1ccccc1 | African swine fever virus | - | EC50 | VERO | - | >100 µg/mL